# Test system: Mycobacterium tuberculosis
# Details: H37Rv ATCC 27294
smiles,measurement,value
O=[N+]([O-])c1no[n+]([O-])c1-c1ccccc1,MIC90,14 µM

# Source: ChEMBL document CHEMBL3872213, “Synthesis and biological activity of furoxan derivatives against Mycobacterium tuberculosis” (Eur J Med Chem, 2016)
